## PSTVd loop 27 mutant pool in Nicotiana benthamiana

The measurements come from Wu et al. 2024 (doi:10.1371/journal.ppat.1012142).

The pool varies loop 27 of the PSTVd intermediate strain in the pattern UNNNNA; wild type is UUUUCA (5' to 3', with the closing base pair).

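Three N. benthamiana plants were inoculated with the whole mutant pool. Progeny were sequenced from the inoculated region (day 5), the margin of the inoculated leaf (day 10) and systemic leaves (day 12).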

Values are reads per thousand in the sample; higher means more abundant, 0 means not found. Each value is the mean of three plants. "Pool" is the share in the plasmid pool used as inoculum, on the same scale. The inoculated region was read from the minus strand, the other sites from the plus strand. Samples held 30,013 to 65,426 reads, so the smallest values rest on one or two reads.

- UGGACA (pool 2.11): inoculated region 0.786; leaf margin 0.0475; systemic leaves 0.0224
- UUAUGA (pool 4.86): inoculated region 4.25; leaf margin 0.182; systemic leaves 0.113
- UUAGGA (pool 5.76): inoculated region 1.56; leaf margin 0.189; systemic leaves 0.0386
- UAACUA (pool 3.87): inoculated region 1.86; leaf margin 0.107; systemic leaves 0.0471
- UGACCG (pool 0.0136): inoculated region 0; leaf margin 0; systemic leaves 0
- UCUCUA (pool 4.25): inoculated region 4.08; leaf margin 0.163; systemic leaves 0.0954
- AUAUGA (pool 0.0136): inoculated region 0.00546; leaf margin 0; systemic leaves 0
- CUUCUA (pool 0.244): inoculated region 0.0474; leaf margin 0.0775; systemic leaves 0.00536
- UCACUA (pool 1.02): inoculated region 0.810; leaf margin 0.116; systemic leaves 0
- UUGGUA (pool 9.11): inoculated region 11.9; leaf margin 2.15; systemic leaves 0.183
- GUCGCA (pool 0.0136): inoculated region 0; leaf margin 0; systemic leaves 0
- UGGAAC (pool 0.163): inoculated region 0.125; leaf margin 0.132; systemic leaves 0.00656
- UCCGGA (pool 2.42): inoculated region 1.04; leaf margin 0.0313; systemic leaves 0.0167
- UCGGCA (pool 2.43): inoculated region 0.723; leaf margin 0.0202; systemic leaves 0.0304
- UAGGAA (pool 6.49): inoculated region 4.65; leaf margin 0.403; systemic leaves 0.0753
- UCGUGA (pool 4.24): inoculated region 4.32; leaf margin 0.777; systemic leaves 0.0649
- UAACAA (pool 5.91): inoculated region 4.84; leaf margin 0.881; systemic leaves 0.139
- UGGUAA (pool 6.06): inoculated region 5.57; leaf margin 0.658; systemic leaves 0.227
- UGGGAA (pool 5.66): inoculated region 1.98; leaf margin 0.352; systemic leaves 0.0464
- AUUUCA (pool 0.0272): inoculated region 0.0701; leaf margin 0.432; systemic leaves 0.431
- UUUUCC (pool 0.0543): inoculated region 0.0281; leaf margin 0.862; systemic leaves 1.78
- UUGUGA (pool 4.33): inoculated region 5.81; leaf margin 0.514; systemic leaves 0.882
- UCCAGA (pool 2.27): inoculated region 1.64; leaf margin 0.0187; systemic leaves 0.0626

Extract of 2 entries:

* UGACCG (pool 0.0136) = inoculated region 0; leaf margin 0; systemic leaves 0
* UAGGAA (pool 6.49) = inoculated region 4.65; leaf margin 0.403; systemic leaves 0.0753

The authors trace changes outside the varied positions to PCR and sequencing errors or to mutation in the plant; presence does not show that a variant is infectious alone. Wild type was 39.4 per thousand in the pool and the most common sequence in every sample (inoculated region 155, 124, 130; leaf margin 823, 907, 920; systemic leaves 805, 787, 933).